Pooled drug test results. Numbers come from NIAID ChemDB, via PubChem.

All rows: target-level tests; organism: HIV-1; protein: Integrase; endpoint: IC50

Conditions beyond the fields shown may differ between rows. ICn: concentration for n% inhibition. a–b is a range or a potency band.

SMILES	method	value
O=C1c2c(O)c(=O)n(C3CCOC3)c(=O)n2CCN1Cc1ccc(F)cc1	strand transfer	<10 µM
CN(C(=O)/C=C(\O)C(=O)O)C(c1ccccc1)c1ccccc1	strand transfer	>70 µM
COC(=O)N1CCn2c(nc(C(=O)NCc3ccc(F)cc3)c(O)c2=O)C1CN(C)C	ELISA	<10 µM
CC(=O)c1cn2ccn(Cc3ccc(F)cc3)c(=O)c2c(O)c1=O	ELISA	<0.01 µM
CN(C)CC1c2nc(C(=O)NCc3ccc(F)cc3)c(O)c(=O)n2CCN1Cc1ccn(C)n1	ELISA	<10 µM
O=C1c2c(O)c(=O)n(C3CCSCC3)c(=O)n2CCN1Cc1ccc(F)cc1	strand transfer	<10 µM
N#C/C(=C\c1ccc(O)c(O)c1)C(=O)NCC1CCCC(CNC(=O)/C(C#N)=C/c2ccc(O)c(O)c2)C1	3′ processing / substrate cleavage	10–100 µM
O=C1c2c(O)c(=O)n(C3CCS(=O)(=O)CC3)c(=O)n2CCN1Cc1ccc(F)cc1	strand transfer	<10 µM
O=c1ccn2ccn(CCCc3ccccc3Cl)c(=O)c2c1O	ELISA	0.01–0.1 µM
CN1CCn2c(nc(C(=O)NCc3ccc(F)cc3)c(O)c2=O)C(N(CC2CCCCC2)C(=O)C(=O)N(C)C)C1	ELISA	<10 µM
N#C/C(=C\c1ccc(O)c(O)c1)C(=O)OCc1ccccc1COC(=O)/C(C#N)=C/c1ccc(O)c(O)c1	3′ processing / substrate cleavage	3 µM
CN(C)S(=O)(=O)N(C)C1COCCn2c1nc(C(=O)NCc1ccc(F)cc1)c(O)c2=O	ELISA	<10 µM
COc1ccc(C(c2ccc(OC)cc2)N(C)C(=O)/C=C(\O)C(=O)O)cc1	strand transfer	<70 µM
CC(C)c1cn(Cc2cccc(Cl)c2)c(=O)c2c(O)c(=O)ccn12	ELISA	0.01–0.1 µM
CCSCCn1c(=O)c(O)c2n(c1=O)CCN(Cc1ccc(F)cc1)C2=O	strand transfer	<10 µM
Cc1cccc(C)c1-c1cn2ccn(Cc3cccc(Cl)c3)c(=O)c2c(O)c1=O	ELISA	0.01–0.1 µM
N#C/C(=C\c1ccc(O)c(O)c1)C(=O)NC1CCC(CC2CCC(NC(=O)/C(C#N)=C/c3ccc(O)c(O)c3)CC2)CC1	strand transfer	3 µM
CNC(=O)c1cc(F)ccc1CNC(=O)c1nc2n(c(=O)c1O)CCN(C)C2(C)C	ELISA	<10 µM
COC(=O)c1cc(F)ccc1CN1CCn2cc(-c3nccs3)c(=O)c(O)c2C1=O	ELISA	0.1–1 µM
O=C(O)/C(O)=C/C(=O)N(Cc1ccc2ccccc2c1)c1ccc(Cl)cc1	strand transfer	<70 µM
O=C(O)C1CN(Cc2ccc(Cl)c(Cl)c2)C(=O)c2c(O)c(=O)ccn21	ELISA	0.01–0.1 µM
CN(C(=O)/C=C(\O)C(=O)O)C(Cc1ccc(F)cc1)c1ccc(F)cc1	strand transfer	<70 µM
N#C/C(=C\c1ccc(O)c(O)c1)C(=O)Nc1cccc(C(=O)O)c1	3′ processing / substrate cleavage	10–100 µM
CC(C)(C)C(=O)c1cc(=O)c(O)c2n1CCN(Cc1ccc(Cl)c(Cl)c1)C2=O	ELISA	<0.01 µM
O=C(O)/C(O)=C/C(=O)N(CCCc1ccccc1Cl)Cc1ccc(F)cc1	strand transfer	<70 µM